Compound potency records, mixed from different reports. Data source: NIAID ChemDB in PubChem.

Common to all: growth or infection tests; agent: Staphylococcus aureus

MIC50, MIC90 and the like: level of inhibition, or share of isolates inhibited. a–b is a range or a potency band. Lines come from different laboratories, so protocols vary.

compound | strain | read-out | value
O=C1O[C@@H](COc2ccon2)CN1c1ccc(-n2cccc2)cc1 | 122 (novobiocin-resistant) | MIC | 8 µg/mL
C[C@@H](CO)Nc1cc2c(cc1F)c(=O)c(C(=O)O)cn2C1CC1 | ATCC 5278 (methicillin-resistant) | MIC | 6.25 µg/mL
CS(=O)(=O)N[C@H]1CCN(c2ccc(N3C[C@H](COc4cnsn4)OC3=O)cc2F)C1 | 122 (novobiocin-resistant) | MIC | 0.5 µg/mL
NCCCNc1cc2c(cc1F)c(=O)c(C(=O)O)cn2C1CC1 | ATCC 5278 (methicillin-resistant) | MIC | >100 µg/mL
CO/N=C1\CN(c2nc3c(cc2F)c(=O)c(C(=O)O)cn3C2CC2)CC1CN | 38 isolates (methicillin-resistant) | MIC50 | 1 µg/mL
CC[C@H]1OC(=O)[C@H](C)C(=O)[C@H](C)[C@@H](O[C@@H]2O[C@H](C)C[C@H](N(C)C)[C@H]2O)[C@](C)(OC)C[C@@H](C)C(=O)[C@H](C)[C@H]2N(CCCCn3cnc(-c4cccnc4)c3)C(=O)O[C@]12C | 25 strains | MIC50 | 0.125 µg/mL
Cc1c(NCCO)c(F)cc2c(=O)c(C(=O)O)cn(-c3cc(N)c(F)cc3F)c12 | 27 isolates | MIC50 | 0.015 µg/mL
CC(C)(C)n1cc(C(=O)O)c(=O)c2cc(F)c(N3C[C@H]4C[C@@H]3CN4)nc21 | 44 strains (methicillin-resistant) | MIC50 | 0.25 µg/mL
NCCCCCCCNc1cc2c(cc1F)c(=O)c(C(=O)O)cn2-c1ccc(F)cc1F | ATCC 6538P | MIC | 3.1 µg/mL
C[C@@H]1CN(c2c(F)c(N)c3c(=O)c(C(=O)O)cn(C4CC4)c3c2F)C[C@H](C)N1 | Methicillin-susceptible | MIC90 | 0.06–0.2 µg/mL
O=C1O[C@@H](COc2ccon2)CN1c1ccc(N2CC[C@H](O)C2)c(F)c1 | 004 (methicillin quinolone-resistant) | MIC | 4 µg/mL
CC[C@H]1OC(=O)[C@@](C)(F)C(=O)[C@H](C)[C@@H](O[C@@H]2O[C@H](C)C[C@H](N(C)C)[C@H]2O)[C@@]2(C)C[C@@H](C)C(=NC(C)=O)[C@H](C)[C@@H](OC/C(=N\OCc3ccc(-n4cccn4)nc3)CO2)[C@]1(C)O | 25 strains | MIC50 | 0.125 µg/mL
O=C(O)c1cn(C2CC2)c2cc(N3CCN(CCO)CC3)c(F)cc2c1=O | ATCC 5278 (methicillin-resistant) | MIC | 1.56 µg/mL
O=C1O[C@@H](COc2ccon2)CN1c1ccc(N2CCOCC2)c(F)c1 | 004 (methicillin quinolone-resistant) | MIC | 2 µg/mL
CCOC(CC(C)(C)CNc1cc2c(cc1F)c(=O)c(C(=O)O)cn2C1CC1)OCC | ATCC 5278 (methicillin-resistant) | MIC | >100 µg/mL
CCCCCCCCCCCC[N+](C)(C)COC(C)CCC | ATCC 6538 | MBC | 14.3 µM
CC1(C)CC(CNc2cc3c(cc2F)c(=O)c(C(=O)O)cn3C2CC2)CC(C)(C)N1 | ATCC 5278 (methicillin-resistant) | MIC | >100 µg/mL
Cc1c(N)c(F)cc2c(=O)c(C(=O)O)cn(-c3cc(N)c(F)cc3F)c12 | 27 isolates (methicillin-resistant) | Mean MIC | 0.012 µg/mL
CCCCCCCC[N+](C)(C)COCCC(C)CCCC(C)C | ATCC33592 | MBC | 137 µM
COC(CN(C)c1cc2c(cc1F)c(=O)c(C(=O)O)cn2C1CC1)OC | ATCC 6538P | MIC | 3.12 µg/mL
CNC(=O)N[C@H]1CCN(c2ccc(N3C[C@H](CNc4ccon4)OC3=O)cc2F)C1 | 122 (novobiocin-resistant) | MIC | 0.5 µg/mL
CC[C@H]1OC(=O)[C@H](C)C(=O)[C@H](C)[C@@H](O[C@@H]2O[C@H](C)C[C@H](N(C)C)[C@H]2O)[C@](C)(OC)C[C@@H](C)C(=O)[C@H](C)[C@H]2N(CCCCn3cnc(-c4cccnc4)c3)C(=O)O[C@]12C | 25 strains | MIC50 | 1 µg/mL
CCCCCCCCCCCC[N+](C)(C)COC(C)CCCCCC | ATCC 6538 | MBC | 3.06 µM
CC(C)(C)n1cc(C(=O)O)c(=O)c2cc(F)c(N3C[C@H]4C[C@@H]3CN4)nc21 | 61 strains (methicillin-susceptible) | MIC90 | 0.13 µg/mL
CCCCCCCCCCCC[N+](C)(C)COCCCCCCCCC | ATCC 6538 | MBC | 3.69 µM
Cc1c(NCCCO)c(F)cc2c(=O)c(C(=O)O)cn(-c3cc(N)c(F)cc3F)c12 | 27 isolates (methicillin-resistant) | Mean MIC | 0.014 µg/mL
CCCCCCCCCCCC[N+](C)(C)COC1CCCCC1 | ATCC 6538 | MBC | 27.6 µM
N#Cc1ccc(N2CCN(c3ccc(N4C[C@H](COc5ccccn5)OC4=O)cc3F)CC2)nc1 | 004 (methicillin quinolone-resistant) | MIC | 1 µg/mL
CCCCCCCCCCSC[N+](C)(C)CCCCCCCC | ATCC33592 | MBC | 26.3 µM
NCCCCCCCNc1cc2c(cc1F)c(=O)c(C(=O)O)cn2C1CC1 | ATCC 5278 (methicillin-resistant) | MIC | >100 µg/mL

The last 3 rows once more:

{"compound": "N#Cc1ccc(N2CCN(c3ccc(N4C[C@H](COc5ccccn5)OC4=O)cc3F)CC2)nc1", "strain": "004 (methicillin quinolone-resistant)", "read-out": "MIC", "value": "1 µg/mL"}
{"compound": "CCCCCCCCCCSC[N+](C)(C)CCCCCCCC", "strain": "ATCC33592", "read-out": "MBC", "value": "26.3 µM"}
{"compound": "NCCCCCCCNc1cc2c(cc1F)c(=O)c(C(=O)O)cn2C1CC1", "strain": "ATCC 5278 (methicillin-resistant)", "read-out": "MIC", "value": ">100 µg/mL"}